{
  "source": "the supplement of paper PMC12637763",
  "binders": {"B1": {"name": "HIV-1 Env, rebound clone, antibody arm (protein)", "chain": "MRAKGIRKNCQDLLKGGILLLGILMICSAAGNLWVTVYYGVPVWKDATTTLFCASDAKGYSKEAHNVWATHACVPTDPDPREIVMGNVTENFNMWKNDMVDQMHEDIISLWDQSLKPCVKLTPLCVTLNCTNLNITNLNNTNSNTSDTNNNTSSENGSEEMKNCSFNVTTIKGKYQKEYAVLYKLDLVPIDNNDNTSYMLINCNTSVITQACPKISFEPIPIHYCAPAGFAILKCNNKTFNGTGPCTNVSSVQCTHGIRPVVSTQLLLNGSLAEEEVVIRSENFTDNAKTIIVQLKDPIQINCTRPNNNTRKSIHIGPGRAFYATGQIIGNIRQAYCNISKEQWNEALNQTVRKLREQFGNKTMIFNQSSGGDPEIVMHTFNCGGEFFYCNTTQLFNSTWYDTTNSTDSNNNTIKLPCRIKQVINRWQEVGKAMYAPPISGPIRCSSNITGLLLVRDGGNNNSSNSSETFRPGGGNMKDNWRSELYKYKVVKIEPLGVAPTKAKRRVVQRERRAVTLGAMFLGFLGTAGSTMGAASLTLTVQARQLLSGIVQQQSNLLRAIEVHQHMLQLTVWGIKQLQARVLAVERYLKDQQLLGIWGCSGKLICTTTVPWNASWSKKNLSEIWDNMTWIEWEREIQNYTEEIYSLIEKSQNQQAKNEQELLELDKWANLWNWFDITNWLWYIKIFIMIVGGLIGLRIVFTVLSIVNRVRQGYSPLSFQTRLPTQRGPDRPGGTEEEGGERDRDTSRPLVDGFLAIIWVDLRSLFLFSYHRLRDLLLIVTRIVETLGRRGWELLKYWWNLLQYWSQELKNSAISLLNATAIAVAEGTDRVIELIQRAGKAIIHIPRRIRQGLESALL"}, "B2": {"name": "HIV-1 Env, rebound clone, antibody arm (protein)", "chain": "B1 chain with S114N, K667R, K840R"}, "B3": {"name": "HIV-1 Env, rebound clone, antibody arm (protein)", "chain": "B1 chain with E632K, K840R"}, "B4": {"name": "HIV-1 Env, rebound clone, antibody arm (protein)", "chain": "B1 chain with W344C, K840R"}, "B5": {"name": "HIV-1 Env, rebound clone, antibody arm (protein)", "chain": "B1 chain with I631V, K840R"}, "B6": {"name": "HIV-1 Env, rebound clone, antibody arm (protein)", "chain": "MRAKGIRKNCQDLLKGGILLLGILMICSAAGNLWVTVYYGVPVWKDATTTLFCASDAKGYSKEAHNVWATHACVPTDPDPREIVMGNVTENFNMWKNDMVDQMHEDIISLWDQSLKPCVKLTPLCVTLNCTNLNITNLNNTNSNTSDTNNNTSSENGSEEMKNCSFNVTTIKGKYQKEYAVLYKLDLVPIDNNDNTSYMLINCNTSVITQACPKISFEPIPIHYCAPAGFAILKCNNKTFNGTGPCTNVSSVQCTHGIRPVVSTQLLLNGSLAEEEVVIRSENFTDNAKTIIVQLKDPIQINCTRPNNNTRKSIHIGPGRAFYATGQIIGNIRQAYCNISKEQWNEALNQTVRKLREQFGNNKTMIFNQSSGGDPEIVMHTFNCGGEFFYCNTTQLFNSTWYDTTNSTDSNNNTIKLPCRIKQVINRWQEVGKAMYAPPISGPIRCSSNITGLLLVRDGGNNNSSNSSETFRPGGGNMKDNWRSELYKYKVVKIEPLGVAPTKAKRRVVQRERRAVTLGAMFLGFLGTAGSTMGAASLTLTVQARQLLSGIVQQQSNLLRAIEVHQHMLQLTVWGIKQLQARVLAVERYLKDQQLLGIWGCSGKLICTTTVPWNASWSKKNLSEIWDNMTWIEWEREIQNYTEEIYSLIEKSQNQQAKNEQELLELDKWANLWNWFDITNWLWYIKIFIMIVGGLIGLRIVFTVLSIVNRVRQGYSPLSFQTRLPTQRGPDRPGGTEEEGGERDRDTSRPLVDGFLAIIWVDLRSLFLFSYHRLRDLLLIVTRIVETLGRRGWELLKYWWNLLQYWSQELKNSAISLLNATAIAVAEGTDRVIELIQRAGRAIIHIPRRIRQGLESALL"}},
  "note": "Changes are numbered by the printed parent chain. The list shows a part of the results. Env chains of viruses from a treatment-interruption trial, translated from the printed DNA. IC50 / IC80 of two broadly neutralizing antibodies; lower = more sensitive virus; >50 µg/ml means not reached and <0.001 µg/ml is below the lowest dose. No active / inactive call.",
  "data": [
    {"target": "antibody 10-1074", "assay": "neutralization IC50; higher = virus less sensitive to the antibody", "description": "(§1)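 Pseudovirus bearing the Env chain mixed with antibody, from 50 µg/ml in fivefold dilutions, on TZM-bl reporter cells, in duplicate.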", "units": {"neutralization IC50": "µg/mL"}, "values": [
      {"binder": "B1", "neutralization IC50": "> 50"},
      {"binder": "B2", "neutralization IC50": "> 50"},
      {"binder": "B3", "neutralization IC50": "> 50"},
      {"binder": "B4", "neutralization IC50": "> 50"},
      {"binder": "B5", "neutralization IC50": "> 50"},
      {"binder": "B6", "neutralization IC50": "> 50"}
    ]},
    {"target": "antibody 3BNC117", "assay": "neutralization IC50; higher = virus less sensitive to the antibody", "description": "as §1", "units": {"neutralization IC50": "µg/mL"}, "values": [
      {"binder": "B1", "neutralization IC50": 0.509},
      {"binder": "B2", "neutralization IC50": 0.331},
      {"binder": "B3", "neutralization IC50": 0.312},
      {"binder": "B4", "neutralization IC50": 0.131},
      {"binder": "B5", "neutralization IC50": 0.322},
      {"binder": "B6", "neutralization IC50": 0.362}
    ]},
    {"target": "antibody 10-1074", "assay": "neutralization IC80; higher = virus less sensitive to the antibody", "description": "as §1", "units": {"neutralization IC80": "µg/mL"}, "values": [
      {"binder": "B1", "neutralization IC80": "> 50"},
      {"binder": "B2", "neutralization IC80": "> 50"},
      {"binder": "B3", "neutralization IC80": "> 50"},
      {"binder": "B4", "neutralization IC80": "> 50"},
      {"binder": "B5", "neutralization IC80": "> 50"},
      {"binder": "B6", "neutralization IC80": "> 50"}
    ]},
    {"target": "antibody 3BNC117", "assay": "neutralization IC80; higher = virus less sensitive to the antibody", "description": "as §1", "units": {"neutralization IC80": "µg/mL"}, "values": [
      {"binder": "B1", "neutralization IC80": 1.65},
      {"binder": "B2", "neutralization IC80": 1.16},
      {"binder": "B3", "neutralization IC80": 1.08},
      {"binder": "B4", "neutralization IC80": 0.452},
      {"binder": "B5", "neutralization IC80": 1.2},
      {"binder": "B6", "neutralization IC80": 1.26}
    ]}
  ]
}
